Patent US20200123233A1, “Amino acid sequences directed against envelope proteins of a virus and polypeptides comprising the same for the treatment of viral diseases” (published 2020)

What was measured:
[1] = biological target: F protein of RSV Long escape mutant R7C2/11 (K272T) (human respiratory syncytial virus, strain Long escape mutant); experiment: cell-based or functional assay
[2] = biological target: F protein of RSV Long escape mutant R7C2/1 (K272E) (human respiratory syncytial virus, strain Long escape mutant); experiment: cell-based or functional assay

Synagis (Palivizumab, MedImmune, humanized monoclonal antibody)
IC50, hRSV micro neutralization of escape mutant [1]: > 200 nM
IC50, hRSV micro neutralization of escape mutant [2]: > 200 nM
